A mixed list of measured activities; the numbers were collected in NIAID ChemDB.

All rows: tests in culture; species: Candida albicans; measure: MIC

An empty or dashed field is not shown. Conditions beyond the fields shown may differ between rows.

C(/C=C/c1ccccc1)=Nc1ccccc1CN1CCOCC1 ; strain or isolate: CDC385 ; value: >100 µg/mL
O=C(NN1C(=O)/C(=C/c2cc3ccccc3nc2Cl)N=C1c1ccccc1)c1cc(Cl)ccc1Cl ; strain or isolate: MTCC 227 ; method: broth dilution ; value: 100 µg/mL
O=C(O)c1ccccc1SC(C[N+](=O)[O-])c1ccc([N+](=O)[O-])cc1 ; strain or isolate: ATCC64550 ; value: 3.9 µg/mL
O=C(NN1C(=O)/C(=C/c2cc3ccccc3nc2Cl)N=C1c1ccccc1)c1ccncc1 ; strain or isolate: MTCC 227 ; method: broth dilution ; value: 200 µg/mL
CN(Cc1ccc(S(=O)(=O)Nc2ccccc2)cc1)CC(O)(Cn1cncn1)c1ccc(F)cc1F ; strain or isolate: CAAL-74 ; method: resazurin ; value: 0.06 µg/mL
C(=C\c1ccccc1)/CNc1ccc(CN2CCOCC2)cc1 ; strain or isolate: CDC385 ; value: >100 µg/mL
O=C1C(Br)=C(NBr)C(=O)c2ccccc21 ; value: 25 µg/mL
COc1ccc(C(C[N+](=O)[O-])Sc2ccccc2C(=O)O)cc1 ; strain or isolate: ATCC64550 ; value: 3.9 µg/mL
COC1OC(C)(c2ccc(-c3ccccc3)cc2)C(=O)CC1N1CCOCC1 ; value: >32 µg/mL
Clc1nssc1=Nc1ccc2ncccc2c1 ; strain or isolate: ATCC 10231 ; value: 16 µg/mL
CCN1CCN(c2nc(Nc3ccc(C#N)c(C(F)(F)F)c3)nc(Oc3cccc4cccnc34)n2)CC1 ; strain or isolate: MTCC 183 ; method: agar ; value: 100 µg/mL
CCN(CC)Cn1c(C=Cc2ccc(Cl)cc2)nc2ccccc21 ; value: 283 µM
Clc1ccccc1C(c1ccccc1)(c1ccccc1)n1ccnc1 ; strain or isolate: ATCC 10231 ; method: broth dilution ; value: 6.25 µg/mL
COc1ccc(C(=O)O/N=C/c2ccc(OP3(Oc4ccc(/C=N/OC(=O)c5ccc(OC)cc5)cc4OC)=NP(Oc4ccc(/C=N/OC(=O)c5ccc(OC)cc5)cc4OC)(Oc4ccc(/C=N/OC(=O)c5ccc(OC)cc5)cc4OC)=NP(Oc4ccc(/C=N/OC(=O)c5ccc(OC)cc5)cc4OC)(Oc4ccc(/C=N/OC(=O)c5ccc(OC)cc5)cc4OC)=N3)c(OC)c2)cc1 ; method: agar diffusion / agar ; value: >100 µg/mL
Cc1cc(NC2=C(Cl)C(=O)c3ccccc3C2=O)no1 ; value: 50 µg/mL
CO/N=C(\c1ccc(Cl)cc1)c1cc2ccccc2o1 ; value: 2 µg/mL
Cc1c(C(=O)N2CCN(C)CC2)cc(-c2ccc([N+](=O)[O-])cc2)n1-c1ccccc1Cl ; strain or isolate: 20 strains ; value: >200 µg/mL
N#Cc1ccc(Nc2nc(Oc3cccc4cccnc34)nc(N3CCOCC3)n2)cc1C(F)(F)F ; strain or isolate: MTCC 183 ; method: agar ; value: 25 µg/mL
COc1cc(C=O)ccc1OP1(Oc2ccc(C=O)cc2OC)=NP(Oc2ccc(C=O)cc2OC)(Oc2ccc(C=O)cc2OC)=NP(Oc2ccc(C=O)cc2OC)(Oc2ccc(C=O)cc2OC)=N1 ; method: agar diffusion / agar ; value: >100 µg/mL
Cc1nc(-c2cnccn2)[nH][n+]1C ; method: broth dilution ; value: >256 µg/mL
COc1cc(/C=N/O)ccc1OP1(Oc2ccc(/C=N/OC(=O)c3cccs3)cc2OC)=NP(Oc2ccc(/C=N/O)cc2OC)(Oc2ccc(/C=N/OC(=O)c3cccs3)cc2OC)=NP(Oc2ccc(/C=N/OC(=O)c3cccs3)cc2OC)(Oc2ccc(/C=N/OC(=O)c3cccs3)cc2OC)=N1 ; method: agar diffusion / agar ; value: 75 µg/mL
COC1OC(C)(c2ccc(-c3ccccc3)cc2)C(O)CC1N1CCOCC1 ; value: >32 µg/mL
O=C(O)c1ccccc1SC(C[N+](=O)[O-])c1ccc(Cl)cc1 ; strain or isolate: ATCC64550 ; value: 3.9 µg/mL
CCN(CC)Cn1c(C=Cc2ccc(C)cc2)nc2ccccc21 ; value: 18.7 µM
COc1ccc(C(Sc2ccccc2C(=O)O)C(C)[N+](=O)[O-])cc1 ; strain or isolate: ATCC64550 ; value: 15.6 µg/mL
O=C1C(Cl)=C(Nc2cccc([N+](=O)[O-])c2)C(=O)c2ccccc21 ; value: 100 µg/mL
Cc1ccc(C(Sc2ccccc2C(=O)O)C(C)[N+](=O)[O-])cc1 ; strain or isolate: ATCC64550 ; value: 31.2 µg/mL
COc1ccc(/C(=N\OC(=O)c2ccccc2)c2cc3ccccc3o2)cc1 ; value: 8 µg/mL
CNC1=C(Br)C(=O)c2ccccc2C1=O ; value: 6.3 µg/mL
COc1cncc(C(N)=NNS(=O)(=O)c2ccc(C)cc2)n1 ; method: broth dilution ; value: >256 µg/mL
CC(=O)N1CCN(c2nc(Nc3ccc(C#N)c(C(F)(F)F)c3)nc(Oc3cccc4cccnc34)n2)CC1 ; strain or isolate: MTCC 183 ; method: agar ; value: 100 µg/mL
COC1OC(C)(c2ccc(-c3ccccc3)cc2)C(O)CC1N1CCN(C)CC1 ; value: >32 µg/mL
C(/C=C/c1ccccc1)=Nc1cccc(CN2CCOCC2)c1 ; strain or isolate: CDC385 ; value: 50 µg/mL
C=CCO/N=C/c1ccc(OP2(Oc3ccc(/C=N/OC=C)cc3OC)=NP(Oc3ccc(/C=N/OCC=C)cc3OC)(Oc3ccc(/C=N/OCC=C)cc3OC)=NP(Oc3ccc(/C=N/OCC=C)cc3OC)(Oc3ccc(/C=N/OCC=C)cc3OC)=N2)c(OC)c1 ; method: agar diffusion / agar ; value: >100 µg/mL
CC(=O)O/N=C(\c1ccc(C)cc1)c1cc2ccccc2o1 ; value: 8 µg/mL
CC1=C(Cl)C(O)=CC(=O)C12Oc1cc(O)c(Cl)c(C)c1C2=O ; strain or isolate: MTCC 227 ; method: broth dilution ; value: 500 µg/mL
O=C(O)c1ccccc1SC(C[N+](=O)[O-])c1ccccc1 ; strain or isolate: ATCC64550 ; value: 3.9 µg/mL
Cc1ccc2cccc(N=c3ssnc3Cl)c2n1 ; strain or isolate: ATCC 10231 ; value: 32 µg/mL
Cc1c(O)cccc1C(=O)N[C@@H](CSc1ccccc1)[C@H](O)CN1C[C@H]2CCCC[C@H]2C[C@H]1C(=O)NC(C)(C)C ; strain or isolate: I62D ; value: 64 µg/mL
Clc1nssc1=Nc1cccc2cccnc12 ; strain or isolate: ATCC 10231 ; value: 16 µg/mL
COc1ccc(/C(=N\OCc2ccc(Cl)cc2)c2cc3ccccc3o2)cc1 ; value: 16 µg/mL
N#Cc1ccc(Nc2nc(Oc3cccc4cccnc34)nc(N3CCN(c4cccc(Cl)c4Cl)CC3)n2)cc1C(F)(F)F ; strain or isolate: MTCC 183 ; method: agar ; value: 12.5 µg/mL
CCc1ccc(-c2nc3cc(NC(=O)CC4CCCCC4)ccc3o2)cc1 ; value: 25 µg/mL
CCO/N=C(\c1ccc(OC)cc1)c1cc2ccccc2o1 ; value: 4 µg/mL
O=C(CC1CCCCC1)Nc1ccc2oc(-c3ccc(F)cc3)nc2c1 ; value: 25 µg/mL
Cc1nc2c(=O)n(C(=S)Nc3ccccc3)nc(C)c2s1 ; strain or isolate: ATCC 10231 ; method: broth dilution ; value: 100 µg/mL
Oc1cccc2c(N=c3ssnc3Cl)cccc12 ; strain or isolate: ATCC 10231 ; value: 16 µg/mL
O=C1C(Cl)=C(Nc2ccc(S(=O)(=O)Nc3nncs3)cc2)C(=O)c2ccccc21 ; value: 50 µg/mL
O=C(CCC1CCCCC1)Nc1ccc2oc(-c3ccccc3)nc2c1 ; value: 25 µg/mL
O=C1C(Cl)=C(Nc2ccc(O)cc2)C(=O)c2ccccc21 ; value: 50 µg/mL
CN(Cc1ccc(NS(=O)(=O)c2ccc([N+](=O)[O-])cc2)cc1)CC(O)(Cn1cncn1)c1ccc(F)cc1F ; strain or isolate: 98 001 ; method: resazurin ; value: 0.03 µg/mL
Cc1c(C(=O)N(CCO)CCO)cc(-c2ccc([N+](=O)[O-])cc2)n1Cc1ccc(Cl)cc1 ; strain or isolate: 20 strains ; value: >200 µg/mL
CC(C)c1ccc(S(=O)(=O)Nc2ccc(CN(C)CC(O)(Cn3cncn3)c3ccc(F)cc3F)cc2)cc1 ; strain or isolate: 98 001 ; method: resazurin ; value: 0.023 µg/mL
OC(Cn1cncn1)(Cn1cncn1)c1ccc(F)cc1F ; strain or isolate: 2715 ; value: 6.25 µg/mL
CCN(CC)Cn1c(C=Cc2ccc(O)cc2)nc2ccccc21 ; value: 37.2 µM
Cc1nn(-c2ccc(S(=O)(=O)NC(=S)Nc3ccc(F)cc3)cc2)c(=O)c2c(C)noc12 ; strain or isolate: ATCC 10231 ; method: broth dilution ; value: 12.5 µg/mL
O=C(O)c1ccc(NC2=C(Cl)C(=O)c3ccccc3C2=O)cc1 ; value: 25 µg/mL
O=C(NN1C(=O)/C(=C/c2cc3ccccc3nc2Cl)N=C1c1ccccc1)c1ccc(F)cc1 ; strain or isolate: MTCC 227 ; method: broth dilution ; value: 100 µg/mL
C=C[C@@H]1C(=C)CC[C@H]2[C@H]1C[C@H]1OC(=O)[C@@]3(C)[C@@H](O)CC[C@@]2(C)[C@@]13O ; value: 8 µg/mL
Cc1nn2c(C(F)(F)F)nnc2c2c(C)noc12 ; strain or isolate: ATCC 10231 ; method: broth dilution ; value: ≥200 µg/mL
C(=C\c1ccccc1)/CNc1cccc(CN2CCOCC2)c1 ; strain or isolate: CDC385 ; value: 100 µg/mL
CC1CC2=C(O1)c1ccccc1C(=O)C2=O ; strain or isolate: 1 ; method: broth dilution ; value: 12 µg/mL
COc1ccc(/C(=N\OC(C)=O)c2cc3ccccc3o2)cc1 ; value: 64 µg/mL
CCCc1ccc(NS(=O)(=O)c2ccc(CN(C)CC(O)(Cn3cncn3)c3ccc(F)cc3F)cc2)cc1 ; strain or isolate: CAAL-74 ; method: resazurin ; value: 0.011 µg/mL
CCN(CC)Cn1c(C=Cc2ccccc2)nc2ccccc21 ; value: 39.1 µM
O=C(Nc1ccc2oc(-c3ccccc3)nc2c1)C1CCCCC1 ; value: 25 µg/mL
COc1cc(/C=N/O)ccc1OP1(Oc2ccc(/C=N/O)cc2OC)=NP(Oc2ccc(/C=N/O)cc2OC)(Oc2ccc(/C=N/O)cc2OC)=NP(Oc2ccc(/C=N/O)cc2OC)(Oc2ccc(/C=N/O)cc2OC)=N1 ; method: agar diffusion / agar ; value: >100 µg/mL
O=S(=O)(c1ccccc1)n1cnc(-c2cnccn2)n1 ; method: broth dilution ; value: >256 µg/mL
CN(Cc1ccc(S(=O)(=O)Nc2ccc([N+](=O)[O-])cc2)cc1)CC(O)(Cn1cncn1)c1ccc(F)cc1F ; strain or isolate: 98 001 ; method: resazurin ; value: 0.018 µg/mL
COc1cc(/C=N/O)ccc1OP1(Oc2ccc(/C=N/OC(=O)c3ccccc3Cl)cc2OC)=NP(Oc2ccc(/C=N/O)cc2OC)(Oc2ccc(/C=N/OC(=O)c3ccccc3Cl)cc2OC)=NP(Oc2ccc(/C=N/OC(=O)c3ccccc3Cl)cc2OC)(Oc2ccc(/C=N/OC(=O)c3ccccc3Cl)cc2OC)=N1 ; method: agar diffusion / agar ; value: >100 µg/mL
Cc1c(C(=O)N(CCO)CCO)cc(-c2ccc([N+](=O)[O-])cc2)n1-c1ccc(Cl)cc1Cl ; strain or isolate: 20 strains ; value: >200 µg/mL
CCc1ccc(C(C[N+](=O)[O-])Sc2ccccc2C(=O)O)cc1 ; strain or isolate: ATCC64550 ; value: 3.9 µg/mL
Cc1nn(-c2ccc(S(=O)(=O)/N=C3\SCC(=O)N3c3ccc(F)cc3)cc2)c(=O)c2c(C)noc12 ; strain or isolate: ATCC 10231 ; method: broth dilution ; value: 25 µg/mL
CCCCCCCCn1c(-c2ccc([N+](=O)[O-])cc2)cc(C(=O)N2CCN(C)CC2)c1C ; strain or isolate: 20 strains ; value: >200 µg/mL
O=C(O/N=C(\c1ccccc1)c1cc2ccccc2o1)c1ccccc1 ; value: 4 µg/mL
C(/C=C/c1ccccc1)=Nc1ccc(CN2CCOCC2)cc1 ; strain or isolate: CDC385 ; value: >100 µg/mL

Repeating the final 11 entries:

| structure | strain or isolate | method | value |
|---|---|---|---|
| O=C(Nc1ccc2oc(-c3ccccc3)nc2c1)C1CCCCC1 | - | - | 25 µg/mL |
| COc1cc(/C=N/O)ccc1OP1(Oc2ccc(/C=N/O)cc2OC)=NP(Oc2ccc(/C=N/O)cc2OC)(Oc2ccc(/C=N/O)cc2OC)=NP(Oc2ccc(/C=N/O)cc2OC)(Oc2ccc(/C=N/O)cc2OC)=N1 | - | agar diffusion / agar | >100 µg/mL |
| O=S(=O)(c1ccccc1)n1cnc(-c2cnccn2)n1 | - | broth dilution | >256 µg/mL |
| CN(Cc1ccc(S(=O)(=O)Nc2ccc([N+](=O)[O-])cc2)cc1)CC(O)(Cn1cncn1)c1ccc(F)cc1F | 98 001 | resazurin | 0.018 µg/mL |
| COc1cc(/C=N/O)ccc1OP1(Oc2ccc(/C=N/OC(=O)c3ccccc3Cl)cc2OC)=NP(Oc2ccc(/C=N/O)cc2OC)(Oc2ccc(/C=N/OC(=O)c3ccccc3Cl)cc2OC)=NP(Oc2ccc(/C=N/OC(=O)c3ccccc3Cl)cc2OC)(Oc2ccc(/C=N/OC(=O)c3ccccc3Cl)cc2OC)=N1 | - | agar diffusion / agar | >100 µg/mL |
| Cc1c(C(=O)N(CCO)CCO)cc(-c2ccc([N+](=O)[O-])cc2)n1-c1ccc(Cl)cc1Cl | 20 strains | - | >200 µg/mL |
| CCc1ccc(C(C[N+](=O)[O-])Sc2ccccc2C(=O)O)cc1 | ATCC64550 | - | 3.9 µg/mL |
| Cc1nn(-c2ccc(S(=O)(=O)/N=C3\SCC(=O)N3c3ccc(F)cc3)cc2)c(=O)c2c(C)noc12 | ATCC 10231 | broth dilution | 25 µg/mL |
| CCCCCCCCn1c(-c2ccc([N+](=O)[O-])cc2)cc(C(=O)N2CCN(C)CC2)c1C | 20 strains | - | >200 µg/mL |
| O=C(O/N=C(\c1ccccc1)c1cc2ccccc2o1)c1ccccc1 | - | - | 4 µg/mL |
| C(/C=C/c1ccccc1)=Nc1ccc(CN2CCOCC2)cc1 | CDC385 | - | >100 µg/mL |